# Patent US4051253A, “Microbicidal nitrofuryl compounds” (Byk Gulden Lomberg Chemische Fabrik GmbH, priority 1974, dated 1977)
# Columns and labels:
# S. typhimurium G 46 = test: Host mediated assay; conditions: 50 mg/kg s.c.
# [1] = system: Serratia marcescens strain HY/a 21; test: In vitro mutagenicity test on a solid nutrient medium (spot test); conditions: 10 mg/ml
compound,measurement,setting,value
CN(N=O)C(=N)N[N+](=O)[O-],"Mutants/ml, Test",S. typhimurium G 46,5.94 . 10^2 Mutants/ml
same,Mutation frequency in test animals,S. typhimurium G 46,5.82 . 10^-7
same,"Mutants, Test",[1],6.45 × 10^2 colonies/ml
same,Mutation frequency,[1],3.3 × 10^-6
